Measured values from several laboratories, pooled; numbers as filed in NIAID ChemDB.

Common to all: growth or infection tests; agent: Hepatitis C virus; method: replicon; measure: EC50

Rows are shuffled and stem from different studies.

smiles,cell line,strain,result
CS(=O)(=O)CCNc1nc(N)nc2ccc(-c3cccc(NS(=O)(=O)C4CC4)c3)nc12,Huh7,,0.3–1 µM
Cc1ccoc1C(=O)Nc1ccc(-c2cc(N(C(=O)C3CCC(C)CC3)C(C)C)c(C(=O)O)s2)cc1,,1b,<0.5 µM
CCOc1nc(NCc2ccc(Cl)c(F)c2)nc2ccc(-c3ccc(F)cc3)nc12,,,<0.1 µM
CC1CCC(C(=O)N(c2cc(-c3ccc(NC(=O)c4ccc(F)cc4)c(Cl)c3)sc2C(=O)O)C(C)C)CC1,,1b,<0.5 µM
C=CC1CC1(NC(=O)[C@@H]1C[C@@H](OC(=O)Nc2ccccc2-n2nc3cc(OC)c(OC)cc3n2)CN1C(=O)[C@@H](NC(=O)OC(C)(C)C)C(C)(C)C)C(=O)NS(=O)(=O)C1CC1,Huh7,1b,<0.1 µM
Cc1[nH]ncc1C(=O)Nc1ccc(-c2cc(N(C(=O)C3CCC(C)CC3)C(C)C)c(C(=O)O)s2)cc1,,1a,>0.5 µM
O=C(O)c1c(-c2ccc[nH]c2=O)c2c3occc3c(F)cc2n1Cc1ccc2[nH]c(=O)[nH]c2c1,,,<0.5 µM
Cc1cc(C(=O)Nc2ccc(-c3cc(N(C(=O)C4CCC(C)CC4)C(C)C)c(C(=O)O)s3)cc2)ccn1,,1b,<0.5 µM
CCOc1nc(NCc2ccc(F)cc2)nc2ccc(-c3ccc(NC(=O)N4CCOCC4)cc3)nc12,,,<0.1 µM
COc1cccc(CC(=O)N/N=C/c2c(OC)cccc2OS(=O)(=O)c2ccc(C(F)(F)F)cc2)c1,Huh7,,<5 µM
C=CC1CC1(NC(=O)[C@@H]1C[C@@H](OC(=O)N2CCc3ccccc32)CN1C(=O)[C@@H](NC(=O)OC(C)(C)C)C(C)(C)C)C(=O)NS(=O)(=O)C1CC1,Huh7,1b,0.1–1 µM
CS(=O)(=O)NC(=O)c1c(-c2ccc[nH]c2=O)c2c3ccoc3ccc2n1Cc1ccc(F)cc1F,,,>1.5 µM
CCOc1nc(NCc2ccc(F)cc2F)nc2ccc(-c3ccc(F)cc3)nc12,,,<0.1 µM
O=C(O)c1c(-c2ccc[nH]c2=O)c2c3occc3c(F)cc2n1Cc1ccccc1F,,,<0.5 µM
CC1CCC(C(=O)N(c2cc(-c3ccc(NC(=O)c4ncc[nH]4)cc3)sc2C(=O)O)C(C)C)CC1,,1a,<0.5 µM
COc1ccc(OC)c(CC(=O)N/N=C/c2ccccc2OS(=O)(=O)c2ccc(C(F)(F)F)cc2)c1,Huh7,,<5 µM
C=CC1CC1(NC(=O)[C@@H]1C[C@@H](OC(=O)N2CCOCC2)CN1C(=O)[C@@H](NC(=O)OC(C)(C)C)C(C)(C)C)C(=O)NS(=O)(=O)C1CC1,Huh7,1b,>10 µM
CC1CCC(C(=O)N(c2cc(-c3ccc(NC(=O)c4nccn4C)cc3)sc2C(=O)O)C(C)C)CC1,,1b,<0.5 µM
CCOc1nc(NCc2ccc(F)c(F)c2)nc2ccc(-c3ccc(F)cc3)nc12,,,<0.1 µM
C=CC1CC1(NC(=O)[C@@H]1C[C@@H](OC(=O)Nc2cc(C(C)=O)ccc2N2CCCCC2)CN1C(=O)[C@@H](NC(=O)OC(C)(C)C)C(C)(C)C)C(=O)NS(=O)(=O)C1CC1,Huh7,1b,<0.1 µM
O=C(Cc1ccccc1)N/N=C/c1ccccc1OS(=O)(=O)c1ccc(Br)cc1,Huh7,,<5 µM
O=C(O)c1c(-c2ccc[nH]c2=O)c2c3sccc3ccc2n1Cc1cc(F)ccc1F,,,>1.5 µM
C=CC1CC1(NC(=O)[C@@H]1C[C@@H](OC(=O)N(CC)CC)CN1C(=O)[C@@H](NC(=O)OC(C)(C)C)C(C)(C)C)C(=O)NS(=O)(=O)C1CC1,Huh7,1b,1–10 µM
COCCOc1nc(NCc2ccc(S(N)(=O)=O)cc2)nc2ccc(-c3ccc(F)c(Cl)c3)nc12,,,<0.1 µM
CC1CCC(C(=O)N(c2cc(-c3ccc(NC(=O)c4ncccc4F)cc3)sc2C(=O)O)C(C)C)CC1,,1a,<0.5 µM
O=C(NS(=O)(=O)C1CC1)c1c(-c2ccc[nH]c2=O)c2c3c(ccc2n1Cc1cc(F)ccc1F)CCO3,,,<0.5 µM
COc1cccc(CC(=O)N/N=C/c2ccccc2OS(=O)(=O)c2ccc(Oc3ncc(C(F)(F)F)cc3Cl)nc2)c1,Huh7,,>50 µM
O=C(O)c1c(-c2ccc[nH]c2=O)c2c3occc3c(F)cc2n1Cc1cc2[nH]cnc2cc1Cl,,,<0.5 µM
CC1CCC(C(=O)N(c2cc(-c3ccc(NC(=O)c4c(F)cccc4F)cc3)sc2C(=O)O)C(C)C)CC1,,1b,<0.5 µM
COc1cccc(CC(=O)N/N=C/c2ccccc2CS(=O)(=O)c2ccc(C)cc2)c1,Huh7,,<5 µM
Nc1nc(O[C@@H]2CCOC2)c2nc(-c3ccc(NC(=O)[C@H]4CCNC4)c(F)c3)ccc2n1,Huh7,,<0.3 µM
CCOC(=O)c1c(-c2ccc[nH]c2=O)c2c3occc3c(F)cc2n1Cc1cc(C(N)=O)ccc1F,,,<0.5 µM
O=C(Cc1ccccc1)N/N=C/c1ccccc1OS(=O)(=O)c1ccccc1,Huh7,,>50 µM
COC(=O)c1cccc(Cn2c(C(=O)NS(C)(=O)=O)c(-c3ccc[nH]c3=O)c3c4ccccc4ccc32)c1,,,1–10 µM
CC1CCC(C(=O)N(c2cc(-c3ccc(NC(=O)c4cscn4)cc3)sc2C(=O)[O-])C(C)C)CC1.NC(CCCC[NH3+])C(=O)O,,1a,<0.5 µM
O=C(N/N=C/c1ccccc1OS(=O)(=O)c1ccc(C(F)(F)F)cc1)c1ccccc1Br,Huh7,,<5 µM
COCCNc1nc(N)nc2ccc(-c3ccc(NC(=O)OC)cc3)nc12,Huh7,,0.3–1 µM
O=C(Cc1ccc2c(c1)OCO2)N[C@H]1C[C@@H]1c1ccccc1OS(=O)(=O)c1ccc(C(F)(F)F)cc1,Huh7,,>50 µM
NC(=O)c1cnc(F)c(Cn2c(C(=O)NS(=O)(=O)C3CC3)c(-c3ccc[nH]c3=O)c3c4c(c(F)cc32)CCO4)c1,,,<0.5 µM
C[C@H](N)C(=O)Nc1ccc(-c2ccc3nc(NCc4ccc(S(N)(=O)=O)cc4)nc(NCC(F)(F)F)c3n2)cc1Cl,,,<0.1 µM
O=C(Cc1cccc(Cl)c1)N/N=C/c1ncccc1OS(=O)(=O)c1ccc(C(F)(F)F)cc1,Huh7,,5–50 µM

Repeating the final 5 entries:

smiles	cell line	strain	result
COCCNc1nc(N)nc2ccc(-c3ccc(NC(=O)OC)cc3)nc12	Huh7		0.3–1 µM
O=C(Cc1ccc2c(c1)OCO2)N[C@H]1C[C@@H]1c1ccccc1OS(=O)(=O)c1ccc(C(F)(F)F)cc1	Huh7		>50 µM
NC(=O)c1cnc(F)c(Cn2c(C(=O)NS(=O)(=O)C3CC3)c(-c3ccc[nH]c3=O)c3c4c(c(F)cc32)CCO4)c1			<0.5 µM
C[C@H](N)C(=O)Nc1ccc(-c2ccc3nc(NCc4ccc(S(N)(=O)=O)cc4)nc(NCC(F)(F)F)c3n2)cc1Cl			<0.1 µM
O=C(Cc1cccc(Cl)c1)N/N=C/c1ncccc1OS(=O)(=O)c1ccc(C(F)(F)F)cc1	Huh7		5–50 µM

An empty or dashed field is not shown. Two numbers with a dash give a range or band. ECn: concentration that inhibits the pathogen or its effect by n%.